This note sets out measurements from PubChem BioAssay AID624268 (The Scripps Research Institute Molecular Screening Center, 2012).

This is a selection; strong and weak results do not stand in their true shares. Some structures show a salt or complex split into parts, the way the source records it. Activity calls are given as the source filed them.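 How the source made its calls: active means inhibition above a per-plate cutoff of the control wells' mean inhibition plus 3 SD (cut at about 5.5% in these data); inactive means the rest.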

The subject of the assay is methionyl-tRNA synthetase (Trypanosoma brucei brucei). The assay is described as follows: inhibition of trypanosome methionyl-tRNA synthetase – biochemical, luminescence, primary screen (AID 624268).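 Further: 0% = DMSO wells median and 100% = median of wells with control inhibitor compound.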 The following applies: purified T. brucei MetRS, ATP depletion, Kinase-Glo luminescence; at 11.9 µM; stronger effect = higher value. In short, it runs like this: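 Measured by: Kinase-Glo luciferase luminescence reporting remaining unconsumed ATP. Material: purified T. brucei MetRS enzyme. Doses: 11.9 µM compound single dose, 0.9% DMSO. Medium: HEPES buffer containing pyrophosphatase, BSA, spermine, DTT. Times: 15 min preincubation, 2 h reaction, all 25 °C. Reagent: methionine, ATP and bulk E. coli tRNA.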
For orientation: Kinase-Glo measures the ATP left after a reaction by luminescence.
`COc1ccccc1OP(C)(=O)Nc1ccccc1` (centres undefined): the inhibition – broadly, the drop in the measured response relative to a control, in per cent – is inactive: -0.64%.
As for `CP(=O)(Nc1ccccc1Br)Oc1ccccc1` (centres undefined), the inhibition was inactive: 0.44%.
Consider `CP(=S)(Nn1cnnc1)Oc1ccccc1` (centres undefined), for which the inhibition is inactive: -1.48%.
Consider `CP(=O)(Nc1ccccn1)Oc1ccc(Cl)cc1` (centres undefined), for which the inhibition is inactive: -1.22%.
To `CCOP(C)(=S)SCC(=O)NC(C)C(=O)O` (centres undefined) belongs inactive: -0.28%; to `O=[N+]([O-])c1cc([N+](=O)[O-])c(O)c([N+](=O)[O-])c1.c1ccc(Oc2ccncc2)cc1`, inactive: 1.37%; to `CCOC(=O)c1ccc(NP(C)(=O)Oc2ccc(OC)cc2)cc1` (centres undefined), inactive: 0.46%.
With `Cc1cc(C)cc(OP(C)(=O)Nc2ccc(SC(F)(F)F)cc2)c1` (centres undefined), the inhibition is inactive: -1.5%.
To `CCc1ccc(OP(C)(=O)N2CCN(c3ccc([N+](=O)[O-])cc3)CC2)cc1` (centres undefined) belongs inactive: 0.11%.
Take `CP(=O)(NC(=O)Nc1ccccc1)Oc1ccccc1` (centres undefined): the inhibition is inactive: -1.37%.
The same measure for `CP(=O)(Oc1ccccc1)OC(c1ccccc1)C(F)(F)F` (centres undefined): inactive: -0.41%; for `CP(=O)(Nc1ccc(SC(F)(F)F)cc1)Oc1ccc(Cl)cc1` (centres undefined): inactive: -0.13%.
As to `Cc1ccc(Nc2c([N+](=O)[O-])cc([N+](=O)[O-])cc2[N+](=O)[O-])cc1`, the inhibition is inactive: 0.04%.
To `Cc1cccc(C)c1OP(C)(=O)Nc1ccc(SC(F)(F)F)cc1` (centres undefined) belongs inactive: 0.14%; to `COc1ccccc1-c1ccccn1.O=[N+]([O-])c1cc([N+](=O)[O-])c(O)c([N+](=O)[O-])c1`, inactive: -0.09%; to `CCN(CC)CCCOC(=O)C(O)(c1ccccc1)c1ccccc1`, inactive: -0.75%.
For `COc1ccc(OP(C)(=O)Nc2cccc(F)c2)cc1` (centres undefined), the inhibition is inactive: -0.36%.
`COc1ccccc1OP(C)(=O)Nc1cc(Cl)ccc1C` (centres undefined): the inhibition is inactive: 0.13%.
The same measure for `Cc1cc(C)cc(OP(C)(N)=O)c1` (centres undefined): inactive: -0.64%; for `CCOC(=O)c1ccc(NP(C)(=O)Oc2ccccc2)cc1` (centres undefined): inactive: -0.81%; for `Cc1ccc(NP(C)(=O)Oc2ccccc2)c(C)c1` (centres undefined): inactive: 0.2%.
With `COc1ccccc1OP(C)(=O)Nc1ccc(C)cc1` (centres undefined), the inhibition is inactive: -1%.
To `Cc1cccc(C)c1OP(C)(N)=O` (centres undefined) belongs inactive: -0.52%; to `CC(C)(C)c1ccc(OP(C)(=O)Nc2ccc(SC(F)(F)F)cc2)cc1` (centres undefined), inactive: -0.2%.
With `O=[N+]([O-])c1ccc2c(c1)C=Nc1ccccc1O2`, the inhibition was inactive: -0.86%.
The same measure for `O=[N+]([O-])c1cc([N+](=O)[O-])c(Nc2cccnc2)c([N+](=O)[O-])c1`: inactive: 0.22%; for `CC1=NCCc2c1[nH]c1ccccc21.O=[N+]([O-])c1cc([N+](=O)[O-])c(O)c([N+](=O)[O-])c1`: inactive: 0.41%.
To `O=C(O)c1cccc(Nc2c([N+](=O)[O-])cc([N+](=O)[O-])cc2[N+](=O)[O-])c1` belongs inactive: 0.55%.
Take `CP(=O)(Nc1cccc(Br)c1)Oc1ccccc1` (centres undefined): the inhibition was inactive: -0.21%.
The same measure for `Cc1cc(C)cc(OP(C)(=O)Nc2ccccn2)c1` (centres undefined): inactive: -0.95%.
Consider `Cc1ccc(C)c(NP(C)(=O)Oc2ccccc2)c1` (centres undefined), for which the inhibition is inactive: -1.69%.
The same measure for `Cc1cc(C)cc(OP(C)(=O)Nc2ccc(C)cc2C)c1` (centres undefined): inactive: 0.02%; for `CCOC(=O)c1ccc(NP(C)(=O)Oc2cc(C)cc(C)c2)cc1` (centres undefined): inactive: 0.23%; for `COc1ccccc1OP(C)(=O)Nc1cccc(Br)c1` (centres undefined): inactive: 0.66%.
For the compound `Cc1nc2ccc3ccccc3c2s1.O=[N+]([O-])c1cc([N+](=O)[O-])c(O)c([N+](=O)[O-])c1`, the inhibition is inactive: 0.27%.
On to `O=[N+]([O-])c1cc([N+](=O)[O-])c(-c2cnn(-c3ccccc3)c2)c([N+](=O)[O-])c1`, for which the inhibition was inactive: 0.36%.
The same measure for `CN(Cc1cccnc1)C(=O)COc1ccc(Cl)c(Cl)c1.O=[N+]([O-])c1cc([N+](=O)[O-])c(O)c([N+](=O)[O-])c1`: inactive: -0.66%; for `O=[N+]([O-])c1cc([N+](=O)[O-])c(-n2nnc3ccccc32)c([N+](=O)[O-])c1`: inactive: -1.34%.
The same measure for `CP(=O)(Nc1ccc(SC(F)(F)F)cc1)Oc1ccccc1` (centres undefined): inactive: -0.06%; for `CCCOc1ccc(NP(C)(=O)Oc2ccc(Cl)cc2)cc1` (centres undefined): inactive: -0.11%; for `COc1ccc(-c2ccccn2)cc1.O=[N+]([O-])c1cc([N+](=O)[O-])c(O)c([N+](=O)[O-])c1`: inactive: -0.64%.
For the compound `CN1CCCCC1COC(=O)C1(O)c2ccccc2CCc2ccccc21` (centres undefined), the inhibition was inactive: -0.94%.
For `COc1ccccc1OP(C)(=O)Nc1c(C)cccc1C` (centres undefined), the inhibition was inactive: -0.08%.
Take `CCOC(=O)C(CC)C1=NC(C)(C)Cc2ccccc21.O=[N+]([O-])c1cc([N+](=O)[O-])c(O)c([N+](=O)[O-])c1` (centres undefined): the inhibition was inactive: 0.61%.
Take `O=[N+]([O-])c1cc([N+](=O)[O-])c(Nc2nnnn2CCO)c([N+](=O)[O-])c1`: the inhibition is inactive: -0.1%.
On to `CC1=C2N=C(C=C3N=C(C(C)=C4[N-][C@@](C)([C@@H]5N=C1[C@](C)(CCC(=O)NC[C@@H](C)OP(=O)([O-])O[C@H]1[C@@H](O)[C@@H](n6cnc7cc(C)c(C)cc76)O[C@@H]1CO)[C@H]5CC(N)=O)[C@@](C)(CC(N)=O)[C@@H]4CCC(N)=O)[C@@](C)(CC(N)=O)[C@@H]3CCC(N)=O)C(C)(C)[C@@H]2CCC(N)=O.[C-]#N.[Co+3]`, for which the inhibition was inactive: 2.66%.
Take `Cc1c(C(c2ccc3c(c2)OCO3)c2c(C)n(C)n(-c3ccccc3)c2=O)c(=O)n(-c2ccccc2)n1C.O=[N+]([O-])c1cc([N+](=O)[O-])c(O)c([N+](=O)[O-])c1`: the inhibition is inactive: 0.04%.
On to `Cc1cc(-c2cccc3ccccc23)c(C)cn1.O=[N+]([O-])c1cc([N+](=O)[O-])c(O)c([N+](=O)[O-])c1`, for which the inhibition is inactive: -0.09%.
Take `O=[N+]([O-])c1cc([N+](=O)[O-])c(NCC2CCS(=O)(=O)C2)c([N+](=O)[O-])c1` (centres undefined): the inhibition was inactive: 0.1%.
For the compound `O=[N+]([O-])c1ccc(OP2(=O)COCCO2)cc1` (centres undefined), the inhibition is inactive: 0.45%.
To `COc1ccc(NP(C)(=O)Oc2ccccc2OC)cc1` (centres undefined) belongs inactive: -0.59%; to `CN(C)CCOC(=O)C(O)(c1ccccc1)C1CCCCC1` (centres undefined), inactive: -0.35%.
To `COc1ccc(OP(C)(=O)Nc2cccc(Br)c2)cc1` (centres undefined) belongs inactive: -0.69%.
The same measure for `O=[N+]([O-])c1cc([N+](=O)[O-])c(C(F)(F)F)c([N+](=O)[O-])c1O`: inactive: -0.33%; for `Cc1ccccc1NP(C)(=O)Nc1ccccc1C`: inactive: -0.52%; for `CP(=O)(Nc1ccc2c(c1)OCCO2)Oc1ccccc1` (centres undefined): inactive: -1.42%.
On to `CCOP(C)(=S)SCC(=O)NC(C)(CC)C(=O)O` (centres undefined), for which the inhibition is inactive: 0.16%.
The same measure for `CP(=O)(Nc1ccc(SC(F)(F)F)cc1)Oc1ccc(F)cc1` (centres undefined): inactive: -0.13%; for `COc1ccc2c(c1O)-c1c(O)c(OC)cc3c1[C@H](C2)[N+](C)(C)CC3.O=[N+]([O-])c1cc([N+](=O)[O-])c([O-])c([N+](=O)[O-])c1[O-]`: inactive: 0.13%; for `O=C(OCCN1CCN(CCOCc2ccccc2)CC1)C(O)(c1ccccc1)c1ccccc1`: inactive: 0.1%.
To `O=C(OC1CN2CCC1CC2)c1ccc([N+](=O)[O-])cc1` (centres undefined) belongs inactive: 2.07%; to `CC(C)c1ccc(OP(C)(=O)Nc2ccc(SC(F)(F)F)cc2)cc1` (centres undefined), inactive: -0.62%; to `CP(=O)(Nc1ccccc1F)Oc1ccccc1` (centres undefined), inactive: -0.62%.
To `O=[N+]([O-])c1cc([N+](=O)[O-])c(Nc2ccc(Cl)cc2)c([N+](=O)[O-])c1` belongs inactive: 0.63%.
Turning to `CCCCCOc1ccc(NP(C)(=O)Oc2ccc(Cl)cc2Cl)cc1` (centres undefined), the inhibition is inactive: 1.47%.
The same measure for `O=[N+]([O-])c1cc([N+](=O)[O-])c(OC2CCCCC2O)c([N+](=O)[O-])c1` (centres undefined): inactive: -0.03%; for `CP(=O)(Nc1ccccc1)Oc1ccc(F)cc1` (centres undefined): inactive: -0.42%; for `CCN(CC)CCCOC(=O)C(O)(c1ccccc1)C1CCCCC1` (centres undefined): inactive: 0.16%.
For the compound `Cc1c([N+](=O)[O-])cc([N+](=O)[O-])c(Br)c1[N+](=O)[O-]`, the inhibition is inactive: 0.33%.
The same measure for `COc1ccc(OP(C)(=O)Nc2ccc(SC(F)(F)F)cc2)cc1` (centres undefined): inactive: -0.38%.
The same measure for `CCOC(=O)c1ccc(NP(C)(=O)Oc2ccc(F)cc2)cc1` (centres undefined): inactive: 0.25%; for `CCN(CC)CCCNc1ccccc1[N+](=O)[O-].O=[N+]([O-])c1cc([N+](=O)[O-])c(O)c([N+](=O)[O-])c1`: inactive: 0.06%.
`CP(=O)(OCCOc1ccccc1)OCCOc1ccccc1`: the inhibition was inactive: -0.94%.
Regarding `CCCCCCCCCCCCCCCC1C[N+](C)(C)CCOP(C)(=O)O1` (centres undefined), the inhibition was inactive: -0.7%.
The same measure for `CP(=O)(Nc1ccc(Cl)cc1Cl)Oc1ccccc1` (centres undefined): inactive: -0.87%; for `COc1ccc(OP(C)(=O)Nc2ccccc2Br)cc1` (centres undefined): inactive: 0.08%.
The same measure for `COc1ccccc1OP(C)(=O)Nc1ccc(C)c(C)c1` (centres undefined): inactive: -0.48%; for `Cc1cc(C)cc(OP(C)(=O)Nc2cccc(C(F)(F)F)c2)c1` (centres undefined): inactive: -1.38%; for `O=C1C(O)=C([N+](=O)[O-])C(=O)C(O)=C1[N+](=O)[O-]`: inactive: -0.12%.
To `CCc1ccc(OP(C)(=O)O)cc1` belongs inactive: -1.31%; to `COc1ccccc1OP(C)(=O)Nc1ccc(C)cc1C` (centres undefined), inactive: -0.43%.
Take `CP(=O)(Nc1ccccn1)Oc1ccccc1` (centres undefined): the inhibition is inactive: -1.24%.
As to `O=[N+]([O-])c1cc([N+](=O)[O-])c(Nc2ccccn2)c([N+](=O)[O-])c1`, the inhibition was inactive: -0.23%.
The same measure for `Cc1c(NP(C)(=O)Oc2ccc(C(C)C)cc2)c(=O)n(-c2ccccc2)n1C` (centres undefined): inactive: -1.01%; for `CN(C)CCOC(=O)C(O)(c1ccccc1)C1CCCC1` (centres undefined): inactive: -0.48%; for `COc1ccc(OP(C)(=O)Nc2ccccn2)cc1` (centres undefined): inactive: -0.11%.
As for `COc1ccccc1OP(C)(=O)Nc1ccc(Br)cc1` (centres undefined), the inhibition is inactive: 0.05%.
Turning to `CN(C)C(=O)c1c([N+](=O)[O-])cc([N+](=O)[O-])cc1[N+](=O)[O-]`, the inhibition is inactive: -0.69%.
The same measure for `CP(=O)(Nc1ccc(Cl)cc1)Oc1ccc(F)cc1` (centres undefined): inactive: 0.03%.
The same measure for `CC(C)(C)c1ccc(OP(C)(=O)O)cc1`: inactive: 0.3%; for `COc1ccccc1OP(C)(=O)Nc1ccccc1Br` (centres undefined): inactive: 0.48%; for `CCc1ccc(OP(C)(=O)Nc2cccnc2)cc1` (centres undefined): inactive: 0.53%.
The same measure for `CP(=O)(Oc1ccccc1)N1CCOC1=O` (centres undefined): inactive: -0.89%; for `O=C(OCCCN1CCCC1)C(O)(c1ccccc1)C1CCCCC1` (centres undefined): inactive: -0.96%; for `COc1ccccc1OP(C)(=O)Nc1c(C)n(C)n(-c2ccccc2)c1=O` (centres undefined): inactive: -0.25%.
As to `COc1ccc(OP(C)(=O)Nc2ccc(Br)cc2)cc1` (centres undefined), the inhibition was inactive: 0.09%.
To `CCN(CC)CC(O)COC(=O)C(O)(c1ccccc1)C1CCCCC1` (centres undefined) belongs inactive: -0.35%; to `CP(=O)(OC12CC3CC(CC(C3)C1)C2)OC12CC3CC(CC(C3)C1)C2`, inactive: -0.65%; to `CCOC(=O)c1ccc(NP(C)(=O)Oc2ccc(Cl)cc2)cc1` (centres undefined), inactive: 0.89%.
